From EP0173480A2, “The antiviral use of phyllanthostatins” (priority 1984, dated 1986)
Where two headings read alike, the source gives them in different places. The amount applied is not stated for every result.

What was measured:
Format in all cases: cell-based
[1] = test system: coxsackie A21
[2] = test system: herpes simplex virus type 2 (HSV-2, MS); test: Inhibition of virus replication, virus yield by plaque method
[3] = test system: herpes simplex virus type 1 (HSV-1, McIntyre); test: as above
[4] = test system: VSV (vesicular stomatitis virus)
[5] = therapeutic index with ID50 Vero 72 hrs.
[6] = therapeutic index with ID50 Vero 91 hrs.

Compound | T - ID50/ED90, Col [1, 5] | T - ID50/ED90, Col [1, 6] | times less inhibitory than phyllanthoside or phyllanthostatin I ([2]; HSV-2, from ED90 values) | T - ID50/ED90, MS [2, 5] | T - ID50/ED90, MS [2, 6] | times less inhibitory than phyllanthoside or phyllanthostatin I ([3]; HSV-1, from ED90 values) | T - ID50/ED90, McIntyre [3, 5] | T - ID50/ED90, McIntyre [3, 6] | T - ID50/ED90, VSV [4, 5] | T - ID50/ED90, VSV [4, 6]
COC(=O)C1CCC2C(C1)OC1(CC(OC(=O)/C=C/c3ccccc3)C(C)CO1)C21CO1 (centres unmarked) [Phyllanthocin] | 0.0957 | 0.1148 | 2-3 | 0.7393 | 0.8867 | 2-3 | 0.8279 | 0.9931 | 0.6818 | 0.8178
Phyllanthostatin I |  |  |  | 0.7399 | 2.2193 |  | 0.5105 | 1.5310 |  | 
